Data taken from PubChem BioAssay AID588549 (Broad Institute, 2011).
The entries are a selection whose mix differs from that of the whole data set. Activity calls are given as the source filed them. No stated cut-off is given here; in the data, active means inhibition above about 8.5% (passing the limit was not always enough); inconclusive means no clear call, values can overlap the other calls.

These compounds were tested on Mycobacterium tuberculosis FadD28 fatty-acid-AMP ligase (assay: inhibitors of FadD28 bisubstrate probe binding, primary screen, biochemical, fluorescence polarization, single point (AID 588549)). Details: at 12.5 µM, active compounds read high.

SMILES	inhibition
CN(C(=O)Cc1ccccc1)[C@@H]1CC[C@]2(CCCO2)C[C@H]1N1CCCC1	inactive: -2.69%
